Data reported in article PMC12090800.
Construct, isoform or probe ends are uncertain for at least one entry.

How the values were obtained:
[1] = target: SrrA-P (phosphorylated His-tagged SrrA) (UniProt Q5HP58); assay: EMSA; details: SrrA-P 50-250 uM, recombinant protein, protein details: His, label: 5'-biotin, probe letters rebuilt from the primers and the genome
[2] = target: SrrA-P (phosphorylated His-tagged SrrA) (UniProt Q5HP58); assay: competition with a labelled probe; details: 125-fold excess unlabeled vs labeled p-srrAB, 250 uM SrrA-P; recombinant protein; protein details: His; probe letters rebuilt from the primers and the genome

| Sequence | binding result [1] | other results |
| --- | --- | --- |
| AATCATAAAAATTCCTCCTTAATATTTAGTATAAATGAAAAGTAAAAAATTGAATCAATCATAAAGATAAACTTCATAAAATATTCAAATAATAATAAAAAGGTTGCAATTCATAAATTTATCCTTTGAAATATAGGATAATAGCTATCATAATTAGAAAAGAGGGAGGAATGAATTATGCTAACTGAAAAAGAGCAAGATATTATCAAACAAACTGTACCATTATTACAAGATAAAGGAACTGAGATTACTTCAATTTTTTATCCTAAGATGTTTGAGGCTAACCCAGAAT (double strand) [p-scdA] | binds |  |
| AGACATAGATAAATTCCTCCTGAAAAGTTAAGTGTTAATTAGAATTACTTAAAAATAATTGTTTGTTTATAATAATTCTAATCTCTTGTTTAGTATTATTACATCTTGGCATTGAATAGTCAACTTTAGAAGTTCTTAAAATCTATGAAAGTATAAAAAAGCTATAATTAAGCCGTTTTAAATCCCTCATTAATTAAAGAATAACGAGTAAAAAAAGTTGAAAATCCAATGTGAAACTGAAATTTTCAAATGTGTATGACTTTGAAATTCAGTTGTCATTCTCAACTATGGTTATTTTATTGAT (double strand) [p-ahpC] | binds |  |
| ATTCACACCCGTTTTATCTACGATATTTTTGAATTCTTTTTTAGTCGGTGTATGTTGAACAATATCAATGGATTCATAATTCACATCGTGCTCATCTAAAAACTTTGCAGCCTTTTTGCACGTTGTGCATTTCGGATACTGATAAAATTTAATCAATTACCTTTTACCTCCTTCTCTCTATTAACTTAAATATATCATGATATTTAATTGAACGCTTTAATTTTCAAGCTAATATTTTTGTTAATGTGCAGTCATTCGTTATAATAAGTTTACCAAATTACAAAAGGAGTAGATAGTGATGAAA (double strand) [p-serp0483] | binds |  |
| GCCGTCTCCCATCTATCTTAAAATATATCCCTCATTTTAATCTTTTTAAAGATACTATTCAATAACTTTTTAGTACTTTAAAGCGTAATTGTTAAATTTTTCTGATATTTCTTATGTTTTTCTATCAATAATTTTAAAATAAGTTTATTTGCTATCGGAAAAGGGTTTAATTAAAATAGATACTACATAGTAATCAATATTAAATATAAAAGTGAGGGGGAGCTTGCTATGTCAAAACAGGATGGAAAA (double strand) [p-katA] | binds |  |
| GGCCCTATAGATTTAAAAGGTTTGAACGCCGGTGAAGGAAGAGTTCTTACACCACATGAAGTAAAAATATTAAGACATTTGGCAGAAAACGGTAAATAAACACCAAAAAGATGTAATTACCATTAAGATTGATATTTTTTTCACAAGGTTAACCTTTGAGTCACTCAATAACGTTAACCTATGATATAATGACAAATGTATTTAACAGCAAGTGTAGGAGGTAGTAGAAAGTATGACTAACGAAATTTTAATCGTTGATGATGAAGATAG (double strand) [p-srrAB unlabeled competitor] |  | binding result [2]: binds |
| GGCCCTATAGATTTAAAAGGTTTGAACGCCGGTGAAGGAAGAGTTCTTACACCACATGAAGTAAAAATATTAAGACATTTGGCAGAAAACGGTAAATAAACACCAAAAAGATGTAATTACCATTAAGATTGATATTTTTTTCACAAGGTTAACCTTTGAGTCACTCAATAACGTTAACCTATGATATAATGACAAATGTATTTAACAGCAAGTGTAGGAGGTAGTAGAAAGTATGACTAACGAAATTTTAATCGTTGATGATGAAGATAG (double strand) [p-srrAB] |  | binding result ([1]; dose-dependent shift): binds |
| TTGATTTATTCACTTCCTATAATTACTATATATCATAATATTGAAACAGATTCATTATTTTAGAAGTTTATCATTTACTATCTTACGAATTTAAAATTTATATTGTAGCTTTCAATATCAACTTTTACTTTTTTATATAATTATTTTGATTTTCAAAAATACTACTGATTTTCATTAAAAAGTTAGAAATACCTTCAATCATTACTTTAAATCATAACATGAATTCTTTAATATTAAATTATATTGTAGTTGATAATAAATAAGTACTTACATAATATCTATGATAATGAGGTGAAAACAAATGAAAAAACCAGATATTCAACAGTTAAAAGATATCGT (double strand) [p-serp1797] | binds |  |
